In ChEMBL document CHEMBL1129997 (J Med Chem, 1997) one finds Ratio data, which are given here for seven compounds.

Each structure is given as a SMILES string.

In the assay the target is T1, Modulator of drug activity A (Escherichia coli O157:H7) (UniProt Q8X6S1).
T1 sequence (whole entry): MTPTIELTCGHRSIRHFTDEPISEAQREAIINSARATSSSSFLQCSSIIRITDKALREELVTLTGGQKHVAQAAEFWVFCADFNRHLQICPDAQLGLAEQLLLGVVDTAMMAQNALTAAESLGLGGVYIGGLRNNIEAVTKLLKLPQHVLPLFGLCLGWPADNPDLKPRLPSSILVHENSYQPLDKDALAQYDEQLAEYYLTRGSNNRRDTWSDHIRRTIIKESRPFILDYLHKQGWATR
Kind of assay: IC50 ratio for NR-positive and NR-negative cell lines. The class given is functional.
Take `NC(=O)c1cc([N+](=O)[O-])cc([N+](=O)[O-])c1N(CCI)CCI`: the Ratio is 580. In the case of `NC(=O)c1cc(N2CC2)c([N+](=O)[O-])cc1[N+](=O)[O-]` [TRETAZICAR], the Ratio is 177.

Regarding `O=C(NCC(O)CO)c1cc(N(CCI)CCI)c([N+](=O)[O-])cc1[N+](=O)[O-]` (configuration not stated), the Ratio is 417. Take `O=C(NCC(O)CO)c1cc([N+](=O)[O-])cc([N+](=O)[O-])c1N(CCCl)CCCl` (configuration not stated): the Ratio is 75.

`CS(=O)(=O)CCN(CCS(C)(=O)=O)c1cc(C(N)=O)c([N+](=O)[O-])cc1[N+](=O)[O-]`: the Ratio is greater than 110. As to `NC(=O)c1cc([N+](=O)[O-])cc([N+](=O)[O-])c1N(CCBr)CCBr`, the Ratio stood at 92. The figure for `CS(=O)(=O)CCN(CCCl)c1cc(C(N)=O)c([N+](=O)[O-])cc1[N+](=O)[O-]` is greater than 295.
